Pooled drug test results. Numbers come from NIAID ChemDB, via PubChem.

Shared fields: whole-cell or culture tests; species: HIV-1

Two numbers with a dash give a range or band.

smiles,cell line,strain,measure,method,changes,result
[O-][n+]1nc2ccnn2c2cc(Cl)ccc21,MT-4,IIIB,EC50,cytopathic effect / MTT,,>200 µM
CC(C)[C@H](NC(=O)c1ccc2ccccc2n1)C(=O)N[C@@H](Cc1ccccc1)C(O)CN1CC2CCCCC2CN1C(=O)OC(C)(C)C,MT-2,Clinical isolate strain 237228,EC50,cytopathic effect / RT activity / trypan blue,,<1 µM
CCCNc1c(N=Nc2ccc(Cl)cc2)c(N)nc(=O)n1C,MT-4,IIIB,EC50,MTT,,>100 µM
COc1ccccc1C1CCN(C(=O)c2cc3c([nH]c4ccccc43)c(-c3cccs3)n2)CC1,C8166,IIIB,EC50,syncytia,,3.8 µM
CC(=O)Oc1ccc(/C=C/C(=O)CCc2ccc(NC(=O)C3CCCCC3)cc2)cc1OC(C)=O,TZM-bl,BaL,EC50,luciferase,,29.67 µM
COc1cnc(-n2cnc(C)n2)c2[nH]cc(C(=O)C(=O)N3C(C)Cc4c(-c5ccccc5)ncnc4N3C)c12,MT-2,LAI,EC50,luciferase / reporter gene,,<0.5 µM
O=C(N/N=C/c1c(O)ccc2ccccc12)c1ccc(O)cc1O,TZM-bl,92US657,EC50,fluorescence,,7.3 µM
COc1ccc(-c2ccc(N=Nc3c(N)nc(=O)n(C)c3N3CCCCC3)cc2)cc1OC,MT-4,IIIB,EC50,MTT,,>18.15 µM
CC(CCc1ccccc1)N(C[C@@H](O)[C@H](Cc1ccccc1)NC(=O)[C@H](CC(N)=O)NC(=O)c1ccc2ccccc2n1)NC(=O)OC(C)(C)C,MT-2,Clinical isolate strain 237228,EC50,cytopathic effect / RT activity / trypan blue,,<1 µM
Cn1c(N2CCNCC2)c(N=Nc2ccc(Cl)cc2)c(N)nc1=O,MT-4,IIIB,EC50,MTT,,>3.03 µM
COc1cnc(-n2cnc(C)n2)c2[nH]cc(C(=O)C(=O)N3CCc4c(-c5ccccn5)ncnc4N3C)c12,MT-2,LAI,EC50,luciferase / reporter gene,,<0.5 µM
O=C(c1cc2c([nH]c3ccccc32)c(-c2cccs2)n1)N1CCC(c2ccccn2)CC1,C8166,IIIB,EC50,syncytia,,2.8 µM
Clc1ccc2c(c1)nnc1ccnn12,MT-4,IIIB,EC50,cytopathic effect / MTT,,>200 µM
COc1c(Br)c2c(c3oc4ccccc4c(=O)c13)[C@@H](OC(=O)C13CCC(C)(C(=O)O1)C3(C)C)[C@@H](OC(=O)C13CCC(C)(C(=O)O1)C3(C)C)C(C)(C)O2,TZM-bl,NL4-3,EC50,luciferase,,>4 µM
CCCCCCNc1c(N=Nc2ccc(Cl)cc2)c(N)nc(=O)n1C,MT-4,IIIB,EC50,MTT,,>66.6 µM
CC(C)(C)OC(=O)NN(Cc1ccccc1)C[C@H](O)[C@H](Cc1ccccc1)NC(=O)[C@H](CC(N)=O)NC(=O)c1ccc2ccccc2n1,MT-2,Clinical isolate strain 237228,EC50,cytopathic effect / RT activity / trypan blue,,<1 µM
Cc1cc(CNC(=O)c2nc3n(c(=O)c2O)CC(C)(C)CCC3N(C)C(=O)C(=O)N(C)C)ccc1F,HeLa P4-2,,EC50,single cycle,N155H,0.001 µM
O=C(c1cc2c([nH]c3ccccc32)c(-c2cccs2)n1)N1CCC(c2ccccc2F)CC1,C8166,IIIB,EC50,p24 / antigen,,35.2 µM
O=C(Cn1ccc(=O)[nH]c1=O)Nc1ccc(Br)cn1,TZM-bl,UG070,EC50,luciferase,,70 µM
CC1(C)Oc2cc(O)c3c(=O)c4ccccc4oc3c2[C@@H](OC(=O)C23CCC(C)(C(=O)O2)C3(C)C)[C@H]1OC(=O)C12CCC(C)(C(=O)O1)C2(C)C,TZM-bl,NL4-3,EC50,luciferase,,>4 µM
O=C(CCC(=O)Nc1ccc(Br)cn1)Nc1ccc(Br)cn1,TZM-bl,IIIB,EC50,luciferase,,28.03 µM
CCN1c2ncc(CCOc3ccc(-c4ccc(C(=O)O)cc4)cc3C)cc2C(=O)N(C)c2cccnc21,C8166,IIIB,EC50,p24,,<0.01 µM
Cc1ccc(-c2cc(-c3ccccc3)c(C#N)c(=O)n2[C@@H]2O[C@H](CO)[C@H](O)[C@H](O)[C@H]2O)cc1,MT-4,,EC50,cytopathic effect / XTT,,18.6 µM
Cc1cn([C@H]2C=C[C@@H](COC(=O)CCCCCCCCCCCN=[N+]=[N-])O2)c(=O)[nH]c1=O,MT-4,,EC50,p24,,0.06 µM
CCN(C(=O)C(=O)N(C)C)[C@@H]1CC[C@H](OC)Cn2c1nc(C(=O)NCc1ccc(F)cc1)c(O)c2=O,HeLa P4-2,,EC50,single cycle,G140S/Q148H,0.002 µM
O=[N+]([O-])c1ccc2c(c1)nnc1ccnn12,MT-4,IIIB,EC50,cytopathic effect / MTT,,>30.7 µM
CC(C)N(C[C@@H](O)[C@H](Cc1ccccc1)NC(=O)[C@H](CC(N)=O)NC(=O)c1ccc2ccccc2n1)NC(=O)OC(C)(C)C,MT-2,Clinical isolate strain 237228,EC50,cytopathic effect / RT activity / trypan blue,,<1 µM
CCOC(=O)c1ccc(-c2ccc(N=Nc3c(N)nc(=O)n(C)c3-c3ccc(C(=O)OCC)cc3)cc2)cc1,MT-4,IIIB,EC50,MTT,,>28.24 µM
COc1cnc(-n2cnc(C)n2)c2[nH]cc(C(=O)C(=O)N3CC/C(=C(\C#N)c4ccccc4)CN3)c12,MT-2,LAI,EC50,luciferase / reporter gene,,0.00029 µM
O=c1c(-c2nnc(SCc3ccccc3F)o2)c[nH]c2c(-c3ccccc3)cccc12,HeLa,NL4-3,EC50,p24 / ELISA,,50 µM
O=C(Cn1ccc(=O)[nH]c1=O)Nc1ccc([N+](=O)[O-])cn1,TZM-bl,VB59,EC50,luciferase,,2.68 µM
CN[C@@H]1[C@H](O[C@H]2[C@H](O[C@H]3[C@H](O)[C@@H](O)[C@H](N=C(N)N)[C@@H](O)[C@@H]3N=C(N)N)O[C@@H](C)[C@]2(O)C=O)O[C@@H](CO)[C@H](O)[C@H]1O,MT-4,IIIB,EC50,cytopathic effect / MTT,,>200 µM
Cc1cc(Cl)cc(/C=N/NC(=O)c2ccc(O)cc2O)c1O,TZM-bl,92US657,EC50,fluorescence,,2.3 µM
COc1ccc(-c2ccc(N=Nc3c(N)nc(=O)n(C)c3N(Cc3ccccc3)Cc3ccccc3)cc2)cc1OC,MT-4,IIIB,EC50,MTT,,>2.29 µM
CC(=O)Oc1ccc(/C=C/C(=O)CCc2ccc(NC(=O)Cc3cccs3)cc2)cc1OC(C)=O,TZM-bl,BaL,EC50,luciferase,,>50 µM
Cc1cn([C@H]2C=C[C@@H](CO)O2)c(=O)[nH]c1=O,MT-4,,EC90,p24,,1.15 µM
Cn1c(N2CCOCC2)c(N=Nc2ccc(-c3ccc(F)cc3)cc2)c(N)nc1=O,MT-4,IIIB,EC50,MTT,,>88.71 µM
N#Cc1cnn2c1nnc1cc(Cl)ccc12,MT-4,IIIB,EC50,cytopathic effect / MTT,,>4.5 µM
N[C@@H](Cc1ccc(OS(=O)(=O)[O-])cc1)C(=O)O.[Na+],MT-4,IIIB,EC50,cytopathic effect / MTT,,1.22 µg/mL
O=C(c1cc2c([nH]c3ccccc32)c(-c2cccs2)n1)N1CCC(c2cccc(Cl)c2)CC1,C8166,IIIB,EC50,p24 / antigen,,27.9 µM
CC(C)[C@H](NC(=O)OCc1ccccn1)C(=O)N[C@@H](Cc1ccccc1)C(O)CN1CC2CCCCC2CN1C(=O)OC(C)(C)C,MT-2,Clinical isolate strain 237228,EC50,cytopathic effect / RT activity / trypan blue,,<1 µM
O=[N+]([O-])c1ccc2c(c1)[n+]([O-])nc1ccnn12,MT-4,IIIB,EC50,cytopathic effect / MTT,,>39 µM
Cc1cc(-c2ccc[n+]([O-])c2)ccc1OCCc1cnc2c(c1)C(=O)Nc1c(C)ccnc1N2C1CC1,C8166,IIIB,EC50,p24,,<0.01 µM
CCOC(=O)c1cnn2c1nnc1ccccc12,MT-4,IIIB,EC50,cytopathic effect / MTT,,>200 µM
O=C(c1cc2c([nH]c3ccccc32)c(-c2cccs2)n1)N1CCC(c2cccc(Cl)c2Cl)CC1,C8166,IIIB,EC50,syncytia,,95.8 µM
Cc1ccc(CNC(=O)c2nc3n(c(=O)c2O)C(C)CCCC3N(C)C(=O)C(=O)N(C)C)cc1F,HeLa P4-2,,EC50,single cycle,N155H,0.001 µM
O=C(c1cc2c([nH]c3ccccc32)c(-c2cccs2)n1)N1CCC(c2ccc(F)cc2)CC1,C8166,IIIB,EC50,syncytia,,118.8 µM
CC[C@@H]1COC[C@H](N(C)C(=O)C(=O)N(C)C)c2nc(C(=O)NCc3ccc(F)cc3)c(O)c(=O)n21,HeLa P4-2,,EC50,single cycle,G140S/Q148H,0.116 µM
CC(C)(C)OC(=O)NN(C[C@H](O)[C@H](Cc1ccccc1)NC(=O)[C@H](CC(N)=O)NC(=O)c1ccc2ccccc2n1)C1CCCCC1,MT-2,Clinical isolate strain 237228,EC50,cytopathic effect / RT activity / trypan blue,,<0.1 µM
CCN1c2ncc(CCOc3ccc(C(=O)NCC4(C(=O)O)CCCC4)cc3C)cc2C(=O)N(C)c2cccnc21,C8166,IIIB,EC50,p24,,<0.01 µM
CC(=O)Oc1ccc(/C=C/C(=O)CCc2ccc(NC(=O)c3ccc(C)cc3)cc2)cc1OC(C)=O,TZM-bl,BaL,EC50,luciferase,,11.22 µM
Cc1cn([C@H]2C[C@H](N=[N+]=[N-])[C@@H](CO)O2)c(=O)[nH]c1=O,MT-4,IIIB,EC50,MTT,,0.0022 µM
O=C(c1cc2c([nH]c3ccccc32)c(-c2cccs2)n1)N1CCC(Cc2ccccc2)CC1,C8166,IIIB,EC50,p24 / antigen,,20.4 µM
CC(C)N(C[C@@H](O)[C@H](Cc1ccccc1)NC(=O)[C@H](CC(N)=O)NC(=O)c1ccc2ccccc2n1)NC(=O)c1ccccc1NC(=O)OCc1ccccn1,MT-2,Clinical isolate strain 237228,EC50,cytopathic effect / RT activity / trypan blue,,<0.1 µM
O=C(CCc1ccc(NC(=O)Cc2cccs2)cc1)CCc1ccc(O)c(O)c1,TZM-bl,BaL,EC50,luciferase,,55.37 µM
CCSCCCCCCCCCCCC(=O)OC[C@@H]1C=C[C@H](n2cc(C)c(=O)[nH]c2=O)O1,MT-4,,EC90,p24,,0.6 µM
O=C(CCc1ccc(NC(=O)c2ccc([N+](=O)[O-])cc2)cc1)CCc1ccc(O)c(O)c1,TZM-bl,BaL,EC50,luciferase,,42.46 µM
O=c1c(-c2nnc(SCc3ccc(F)cc3)o2)c[nH]c2c(-c3ccccc3)cccc12,HeLa,NL4-3,EC50,p24 / ELISA,,53 µM
CCN1c2ncc(CCOc3ccc(C(=O)Nc4ccc(C(=O)O)cc4)cc3C)cc2C(=O)N(C)c2cccnc21,C8166,,EC50,p24,RT-K103N Y181C,0.01–0.05 µM
Cc1ccc(-c2cc(-c3ccco3)c(C#N)c(=O)n2[C@@H]2O[C@H](CO)[C@@H](O)[C@H](O)[C@H]2O)cc1,MT-4,,EC50,cytopathic effect / XTT,,8.03 µM

For reference, 8 entries again:

smiles	cell line	strain	measure	method	changes	result
CCN1c2ncc(CCOc3ccc(C(=O)NCC4(C(=O)O)CCCC4)cc3C)cc2C(=O)N(C)c2cccnc21	C8166	IIIB	EC50	p24		<0.01 µM
COc1ccc(-c2ccc(N=Nc3c(N)nc(=O)n(C)c3N3CCCCC3)cc2)cc1OC	MT-4	IIIB	EC50	MTT		>18.15 µM
Cc1cc(CNC(=O)c2nc3n(c(=O)c2O)CC(C)(C)CCC3N(C)C(=O)C(=O)N(C)C)ccc1F	HeLa P4-2		EC50	single cycle	N155H	0.001 µM
Clc1ccc2c(c1)nnc1ccnn12	MT-4	IIIB	EC50	cytopathic effect / MTT		>200 µM
CCN(C(=O)C(=O)N(C)C)[C@@H]1CC[C@H](OC)Cn2c1nc(C(=O)NCc1ccc(F)cc1)c(O)c2=O	HeLa P4-2		EC50	single cycle	G140S/Q148H	0.002 µM
O=C(c1cc2c([nH]c3ccccc32)c(-c2cccs2)n1)N1CCC(c2ccccc2F)CC1	C8166	IIIB	EC50	p24 / antigen		35.2 µM
CC(C)[C@H](NC(=O)OCc1ccccn1)C(=O)N[C@@H](Cc1ccccc1)C(O)CN1CC2CCCCC2CN1C(=O)OC(C)(C)C	MT-2	Clinical isolate strain 237228	EC50	cytopathic effect / RT activity / trypan blue		<1 µM
Cc1ccc(-c2cc(-c3ccco3)c(C#N)c(=O)n2[C@@H]2O[C@H](CO)[C@@H](O)[C@H](O)[C@H]2O)cc1	MT-4		EC50	cytopathic effect / XTT		8.03 µM

Blank or dashed fields: not listed here. ECn: concentration that inhibits the pathogen or its effect by n%. Lines come from different laboratories, so protocols vary.